Pooled drug test results. Numbers come from NIAID ChemDB, via PubChem.

Shared fields: whole-cell or culture tests; species: Rhinovirus; endpoint: EC50

Conditions beyond the fields shown may differ between rows.

| structure | strain | cell line | method | result |
|---|---|---|---|---|
| COC(=O)c1cc(CCCOc2c(C)cc(-c3noc(C)n3)cc2C)on1 | Serotype 22 | HeLa | cytopathic effect | 0.008 µg/mL |
| CO/N=C/c1ccc(OCCCN2CCN(c3ccc(C)nn3)CC2)cc1 | TYPE 1A | KB | cytopathic effect / visual reading | 0.05 µg/mL |
| Cc1cc(CCCOc2c(C)cc(-c3noc(C(F)(F)F)n3)cc2C)on1 | Isolate 29 | OHIO HELA-I | cytopathic effect / visual reading | >1 µg/mL |
| CSc1nsc(-c2ccc(OCCc3ccccc3)cc2)c1C#N | Serotype 39 (group B) | HELA-OHIO | cytopathic effect | 2.5 µM |
| Cc1ccc(Cn2cnc3c(N(C)C)nc(C(F)(F)F)nc32)cc1 | TYPE 16 | M-HELA | plaque count | >5 µM |
| CN(C)c1nc(C(F)(F)F)nc2c1ncn2Cc1ccc(Cl)c(N)c1 | Serotype 30 | M-HELA | plaque count | >8 µM |
| Cn1c2ccccc2c2nnc(NCCc3ccccn3)nc21 | 1059 | WI-38 | plaque count | 220 µg/mL |
| CCOc1nc2cc(OCCC3CCN(c4ccc(C)nn4)CC3)ccc2o1 | Serotype 2 | MRC-5 | cytopathic effect | 0.045 µg/mL |
| CN(C)c1nc(C(F)(F)F)nc2c1ncn2Cc1ccc(Cl)cc1Cl | Serotype 18 | M-HELA | plaque count | >8 µM |
| Cc1c(-c2ccccc2)n(-c2ccc(F)cc2)c2ccc(C(C)C)cc2c1=O | 1B/B632 | HELA-OHIO | cytopathic effect | 0.27 µg/mL |
| Fc1cccc(Cn2cnc3c(Nc4cccc(F)c4)nc(C(F)(F)F)nc32)c1 | Serotype 12 | M-HELA | plaque count | 4.4 µM |
| CSc1nsc(-c2ccc(OCc3ccccc3)cc2)c1C#N | Serotype 42 (group A) | HELA-OHIO | cytopathic effect | 7 µM |
| CSCCCNc1nnc2c3ccccc3n(C)c2n1 | 1059 | WI-38 | plaque count | 45 µg/mL |
| Cc1ccc(Cn2cnc3c(Nc4cccc(F)c4)nc(C(F)(F)F)nc32)cc1 | Serotype 2 | M-HELA | plaque count | 2.6 µM |
| Cc1c(-c2ccccc2)n(-c2cccc(F)c2)c2ccc(C(C)C)cc2c1=O | 50/A2#58 | HELA-OHIO | cytopathic effect | 0.023 µg/mL |
| CSc1nsc(-c2ccc(OCCCOc3ccc([N+](=O)[O-])cc3)cc2)c1C#N | Serotype 39 (group B) | HELA-OHIO | cytopathic effect | 0.5 µM |
| CCOC(=O)c1ccc(OCCC2CCN(c3ccc(C)nn3)CC2)cc1 | Serotype 14 | WI-38 | cytopathic effect | <0.1 µg/mL |
| Cc1cc(CCCCCOc2c(Cl)cc(C3=NCCO3)cc2Cl)on1 | TYPE 49 | HeLa | plaque count | 0.048 µg/mL |
| CO/N=C/c1ccc(OC)c(OCCC2CCN(c3ccc(Cl)nn3)CC2)c1 | TYPE 2 | MRC-5 | cytopathic effect / visual reading | >1 µg/mL |
| CC(C)Oc1ccc(Cn2cnc3c(N(C)C)nc(C(F)(F)F)nc32)cc1 | Serotype 19 | M-HELA | plaque count | >8 µM |
| CCO/N=C/c1ccc(OCCC2CCN(c3ccc(Cl)nn3)CC2)cc1 | 58750 (ICAM-1 receptor group 43) | KB | neutral red | 0.077 µM |
| OCCCNc1nnc2c3ccccc3n(Cc3ccccc3)c2n1 | 1059 | WI-38 | plaque count | 4 µg/mL |
| CN(C)c1nc(C(F)(F)F)nc2c1ncn2Cc1ccc(Cl)c(Cl)c1 | TYPE 1B | M-HELA | plaque count | 0.12 µM |
| CCOc1nc2ccc(OCCC3CCN(c4nnc(C)c(C)n4)CC3)cc2o1 | Serotype 14 | MRC-5 | cytopathic effect | 0.198 µg/mL |
| CSc1nsc(-c2ccc(OCCOc3ccc([N+](=O)[O-])cc3)cc2)c1C#N | Serotype 29 (group B) | HELA-OHIO | cytopathic effect | >2 µM |
| CCc1nc(-c2cc(C)c(OCCCc3cc(COC)no3)c(C)c2)no1 | Serotype 15 | HeLa | cytopathic effect | 0.189 µg/mL |
| CN(C)c1ccc(Cn2cnc3c(N(C)C)nc(C(F)(F)F)nc32)cc1 | Serotype 5 | M-HELA | plaque count | >8 µM |
| CCn1c2c(c(=O)c3cc(C(C)C)ccc31)Cc1ccccc1-2 | TYPE 1A/E28 | HELA-OHIO | cytopathic effect | 2.6 µg/mL |
| C=CCO/N=C/c1cc(C)c(OCCCc2cc(C)no2)c(C)c1 | TYPE 1A | KB | cytopathic effect / visual reading | <0.16 µg/mL |
| CSc1nsc(-c2ccc(OCc3ccccc3)cc2)c1C#N | Serotype 41 (group B) | HELA-OHIO | cytopathic effect | 32 µM |
| CCOc1nc2cc(OCCC3CCN(c4ccc(C)nn4)CC3)ccc2s1 | Serotype 14 | MRC-5 | cytopathic effect | 0.014 µg/mL |
| CSc1nsc(-c2ccc(OCCCCOc3ccc([N+](=O)[O-])cc3)cc2)c1C#N | Serotype 9 (group B) | HELA-OHIO | cytopathic effect | >0.5 µM |
| CCOc1noc2cc(OCCC3CCN(c4nnc(C)s4)CC3)ccc12 | Serotype 14 | MRC-5 | cytopathic effect | 0.005 µg/mL |
| Cn1c(O)c(N=NC(N)=S)c2ccccc21 | 33342 | WI-38 | plaque count | 21 µg/mL |
| CSc1ccc(Cn2cnc3c(N(C)C)nc(C(F)(F)F)nc32)cc1 | Serotype 1B | M-HELA | plaque count | 0.07 µM |
| CCn1c2ccccc2c2nnc(NCCCO)nc21 | 33342 | WI-38 | plaque count | 20 µg/mL |
| CSc1nsc(-c2ccc(OCCCCOc3ccccc3)cc2)c1C#N | Serotype 63 (group B) | HELA-OHIO | cytopathic effect | >20 µM |
| CCO/N=C/c1ccc(OCCC2CCN(c3cc(C(F)(F)F)ccn3)CC2)cc1 | TYPE 1A | KB | cytopathic effect / visual reading | 0.05 µg/mL |
| CN(C)c1nc(C(F)(F)F)nc2c1ncn2Cc1ccc(Br)cc1 | Serotype 5 | M-HELA | plaque count | >8 µM |
| CCOc1nc2ccc(OCCCCCc3cc(C)no3)cc2o1 | Serotype 2 | MRC-5 | cytopathic effect | 0.209 µg/mL |
| CC(=O)NCCCNc1nnc2c3ccccc3n(C)c2n1 | HGP | WI-38 | plaque count | 100 µg/mL |
| CSc1nsc(-c2ccc(OS(=O)(=O)c3ccc(C)cc3)cc2)c1C#N | Serotype 2 (group B) | HELA-OHIO | cytopathic effect | 0.03 µM |
| CCOc1cc(CCCOc2c(C)cc(-c3noc(C)n3)cc2C)on1 | Serotype 30 | HeLa | cytopathic effect | 0.047 µg/mL |
| Cc1ccc(N2CCC(CCOc3ccc4oc(C)nc4c3)CC2)nn1 | Serotype 1A | MRC-5 | cytopathic effect | 0.12 µg/mL |
| Nc1nnc2c(n1)[nH]c1ccc([N+](=O)[O-])cc12 | 1059 | WI-38 | plaque count | 220 µg/mL |
| CCSc1nc2cc(OCCC3CCN(c4ccc(C)nn4)CC3)ccc2o1 | Serotype 14 | MRC-5 | cytopathic effect | 0.05 µg/mL |
| CCOC(=O)c1ccc(OCCC2CCN(c3ccc(C)nn3)CC2)cc1 | Serotype 41 (group B) | HELA-OHIO | cytopathic effect | 0.7 µM |
| CCOc1cnnc2ccc(OCCC3CCN(c4ccc(C)nn4)CC3)cc12 | Serotype 2 | MRC-5 | cytopathic effect | 0.246 µg/mL |
| COc1ccc(-c2snc(SC)c2C#N)cc1 | Serotype 41 (group B) | HELA-OHIO | cytopathic effect | >12 µM |

Repeating the first 5 entries:

structure	strain	cell line	method	result
COC(=O)c1cc(CCCOc2c(C)cc(-c3noc(C)n3)cc2C)on1	Serotype 22	HeLa	cytopathic effect	0.008 µg/mL
CO/N=C/c1ccc(OCCCN2CCN(c3ccc(C)nn3)CC2)cc1	TYPE 1A	KB	cytopathic effect / visual reading	0.05 µg/mL
Cc1cc(CCCOc2c(C)cc(-c3noc(C(F)(F)F)n3)cc2C)on1	Isolate 29	OHIO HELA-I	cytopathic effect / visual reading	>1 µg/mL
CSc1nsc(-c2ccc(OCCc3ccccc3)cc2)c1C#N	Serotype 39 (group B)	HELA-OHIO	cytopathic effect	2.5 µM
Cc1ccc(Cn2cnc3c(N(C)C)nc(C(F)(F)F)nc32)cc1	TYPE 16	M-HELA	plaque count	>5 µM

ECn is the concentration giving n% inhibition of infection, replication or growth.